Data published in publication PMC6899670 (The Febs Journal, 2019).

Assays:
C[C@@H](N)C(=O)O = assay: purified protein; details: pH 8.0; 30.0 °C
[1] = system: Nc1ncnc2c1ncn2[C@@H]1O[C@H](COP(=O)(O)OP(=O)(O)OP(=O)(O)O)[C@@H](O)[C@H]1O; assay: purified protein; details: pH 8.0; 30.0 °C

BpDdl (Burkholderia pseudomallei D-alanine-D-alanine ligase) (Burkholderia pseudomallei K96243)
Km (C[C@@H](N)C(=O)O): 370 ± 85 µM
Km [1]: 70 ± 10 µM
